Measured values from several laboratories, pooled; numbers as filed in NIAID ChemDB.

All rows: growth or infection tests

ECn: concentration that inhibits the pathogen or its effect by n%. A number after MIC or MFC names an inhibition level or a share of isolates. An empty or dashed field is not shown. Inhibition is in % at the dose shown (toxicity tests: loss of growth or viability). Rows are shuffled and stem from different studies.

C#CC[C@@H](C(=O)N[C@H](/C=C/C(=O)OCC)C[C@@H]1CCNC1=O)n1cccc(NC(=O)c2cc(C)on2)c1=O ; organism: Rhinovirus ; strain: Serotype 11 ; cell line: H1-HELA ; method: cytopathic effect / XTT ; read-out: inhibition ; tested at: 0.112 µM ; result: 90%
CCOC(=O)Nc1cc2c(c(N)n1)N=C(c1ccccc1)CCN2 ; organism: Encephalitozoon intestinalis ; cell line: RK-13 ; read-out: inhibition ; tested at: 1 µg/mL ; result: 83.1%
CCO/N=C/c1ccc(OCCC2CCN(c3ccc(C)nn3)CC2)cc1 ; organism: Rhinovirus ; strain: 1200 (ICAM-1 receptor group 33) ; cell line: KB ; method: neutral red ; read-out: EC50 ; result: 0.001 µM
Nc1ccc(S(=O)(=O)c2ccc(N)cc2)cc1 ; organism: Mycobacterium ulcerans ; strain: Isolate 94-539 ; read-out: MIC ; result: 2 µg/mL
Cc1ccnc2c1NC(=O)c1cccnc1N2C1CC1 ; organism: HIV-1 ; mutations: RT-L74V ; cell line: MT-4 ; read-out: EC95 ; result: 0.1 µM
CCN(CC)CCCC(C)Nc1c2ccc(Cl)cc2nc2ccc(OC)cc12 ; organism: Encephalitozoon intestinalis ; cell line: RK-13 ; read-out: inhibition ; tested at: 0.1 µg/mL ; result: 11.2%
Nc1ncnc2c1ncn2C[C@@H](CO)OCP(=O)(O)O ; organism: Adenovirus ; strain: adenoid 6 (TYPE 2) ; method: virus yield ; read-out: EC90 ; result: 2 µg/mL
CC1(C)[C@@H](O[C@H]2O[C@H](C(=O)O)[C@@H](O)[C@H](O)[C@H]2O[C@@H]2O[C@H](C(=O)O)[C@@H](O)[C@H](O)[C@H]2O)CC[C@]2(C)[C@H]3C(=O)C=C4[C@@H]5C[C@@](C)(C(=O)O)CC[C@]5(C)CC[C@@]4(C)[C@]3(C)CC[C@@H]12 ; organism: Dengue virus ; strain: Type 1 (Hawaii) ; cell line: VERO ; method: virus yield ; read-out: EC90 ; result: 316 µg/mL
O=C(Nc1ncc([N+](=O)[O-])s1)c1ccccc1O ; organism: Vittaforma corneae ; cell line: RK-13 ; read-out: inhibition ; tested at: 10 µg/mL ; result: 89.7%
COc1cc(Cc2cnc(N)nc2N)cc(OC)c1OCCCNc1ccc(S(=O)(=O)c2ccc(N)cc2)cc1 ; organism: Mycobacterium ulcerans ; strain: Isolate 94-886 ; read-out: MIC ; result: 2 µg/mL
CCC(C)n1ncn(-c2ccc(N3CCN(c4ccc(OC[C@H]5CO[C@](Cn6cncn6)(c6ccc(Cl)cc6Cl)O5)cc4)CC3)cc2)c1=O ; organism: Candida albicans ; strain: Isogenic isolate 17 CDR ; read-out: MIC ; result: 0.25 µg/mL
CCOC(=O)Nc1cc2oc(=O)c(-c3ccccc3)nc2c(N)n1 ; organism: Encephalitozoon intestinalis ; cell line: RK-13 ; read-out: inhibition ; tested at: 10 µg/mL ; result: 57.1%
Nc1ccn(C[C@@H](CO)OCP(=O)(O)O)c(=O)n1 ; organism: Adenovirus ; strain: adenoid 75 (TYPE 5) ; method: virus yield ; read-out: EC90 ; result: 2 µg/mL
COc1cc(C[C@H](C)[C@H](C)Cc2ccc(O)c(O)c2)ccc1O ; organism: Candida glabrata ; strain: CCC 115-2000 ; method: broth dilution ; read-out: MIC100 ; result: 125 µg/mL
CCOC(=O)Nc1cc2c(c(N)n1)N=C(c1ccc(OC)c(OC)c1)CO2 ; organism: Encephalitozoon intestinalis ; cell line: RK-13 ; read-out: inhibition ; tested at: 10 µg/mL ; result: 77.5%
Nc1ncnc2c1ncn2C[C@H](CO)OCP(=O)(O)O ; organism: Adenovirus ; strain: TRIM (TYPE 8) ; method: cytopathic effect ; read-out: EC50 ; result: 1 µg/mL

2 of the rows above, restated:

smiles | organism | strain | mutations | cell line | method | read-out | tested at | result
Nc1ccc(S(=O)(=O)c2ccc(N)cc2)cc1 | Mycobacterium ulcerans | Isolate 94-539 | - | - | - | MIC | - | 2 µg/mL
CCOC(=O)Nc1cc2c(c(N)n1)N=C(c1ccccc1)CCN2 | Encephalitozoon intestinalis | - | - | RK-13 | - | inhibition | 1 µg/mL | 83.1%